Reference: the supplement of paper PMC12637763
The other results are listed elsewhere or left out. Env chains of viruses from a treatment-interruption trial, translated from the printed DNA. IC50 / IC80 of two broadly neutralizing antibodies; lower = more sensitive virus; >50 µg/ml means not reached and <0.001 µg/ml is below the lowest dose. No active / inactive call.

B1: HIV-1 Env, rebound clone, antibody arm (protein)
chain: MKVKGTQRNWQPLWILILGLVIICRASDNLWVTVYYGVPVWEDADTPLFCASDAKAYKTEKHNVWATHACVPTDPNPQEIILQNVTETFNMWKNNMVEQMHEDIISLWDESLKPCVKLTPLCVTLNCTDANFTMTNNNTNKVEAKNCTFNITTEIRDKKKKEYALFYKLDVVQMDESSTNSSTNSSTYRLINCNVSTIKQACPKVSFEPIPIHYCAPAGFAILKCNDKEFNGTGECKNVSSVQCTHGIKPVVSTQLILNGSLAEKEIMIRSENITNNAKIIIVQLNETVKINCSRPNNNTRRSIHIGPGQAFYAFRDVIGDIRQAYCKVSRTEWSKTLNRVAIQLRKHFSTNTTITFASPLGGDLEITTHSFNCGGEFFYCNTSALFNSTWNSTSTWNSTTSSNFTKDITLQCRIKQIVNMWQKVGQAMYAPPIEGVIRCESNITGLLLTRDGGTNETCSHSPNETFRPGGGDMRNNWRSELYKYKIIKIKPLGIAPTRARRRVVQREKRAVGLGTFFLGFLGTAGSTMGAASITLTVQVRQLLSGIVQQQSNLLRAIDAQQHLLQLTVWGIKQLQARVLAVERYLKDQQLLGIWGCSGKLICTTNVPWNTSWSNKSYNEIWDNMTWIQWEREVSNYTQQIYSLIEQSQNQQEKNEQDLLALDKWASLWSWFDITSWLWYIKIFIMIVGGLIGLRIVFAVLSIVNRVRQGYSPLSFQTLTHHQREPDRPERIEEGGGEQDKDRSVRLVSGFLALAWDDLRSLCLFLYHRLRDFVLIATRTLELLGHSSLRGLRLGWEALKYLWNLLLYWGRELKNSAINLLDTIAVGVANWTDRVIEVAQRVGRAFLNIPRRIRQGFEGALL
B2: HIV-1 Env, rebound clone, antibody arm (protein)
chain: MRVRETLRNYRLWWIWGILGFWMLMICKGGGDSWVTVYYGVPVWKEAKTTLFCASDAKAYETEMHNVWATHACVPTDPNPQEVPLENVTENFNMWKNDMVEQMHEDVISLWDESLKPCVKLTPLCVTLKCTNATSNGTDTNKTADGYNEIKNCSFNATTIVKDKKQKVYALFYRLDIVPLGNSSEYRLINCNTSAMTQACPKVSFDPIPIHYCAPAGYAIIKCNNKTFNGTGPCNSVSTVQCTHGIKPVVSTQLLLNGSLAEEEIIIRSENLTNNAKIIIVHLNKSVEINCTRPGNNTRKSIRIGPGQTFYATGSIIGDIRKAHCNIRETAWNDTLYKVSKKLAEHFNKTIIFAPSSGGDLEITTHSFNCRGEFFYCNTSGLFKGTYNATSGNSTSNATITLPCRIKQVINMWQGVGKAMYAPPIEGNIICRSNITGLLLTRDGGSNSTDETFRPEGGDMRDNWRSELYKYKVVEIKPLGIAPTGAKRRVVEREKRAVGLGAVFLGFLGAAGSTMGAASITLTAQARQLLSGIVQQQSNLLRAIEAQQHMLQLTVWGIKQLQARVLALERYLQDQQLLGIWGCSGKLICTTAVPWNSSWSNRSREYIWENMTWMQWEREIENYTGTIYQLLEDSQNQQEKNEQDLLALDSWKNLWNWFGISKWLWYIKIFIMIVGGLIGLRILFAIISVVNRVRQGYSPLSFQTLTPNPGGPDRLGGIEEEGGEQDRDRSVRLVNGFLALAWDDLRSLCLFLYHRLRDFISVTVRVVELLGRSSLKGLQGGWEALKYLGNLVQYWISELKKSAISLLDTIAIAVAEGTDRIIDLIQEICRAILNIPRRIRQGFEAALQ
B3: HIV-1 Env, rebound clone, antibody arm (protein)
chain: MRVRETLRNYRPWWIWGILGFWMLMICKGGGDSWVTVYYGVPVWKEAKTTLFCASDAKAYETEMHNVWATHACVPTDPNPQEVPLENVTENFNMWKNDMVEQMHEDVISLWDESLKPCVKLTPLCVTLKCTNATSNGTDTNKTADGYNEIKNCSFNATTIVKDKKQKVYALFYRLDIVPLGNSSEYRLINCNTSAMTQACPKVSFDPIPIHYCAPAGYAIIKCNNKTFNGTGPCNSVSTVQCTHGIKPVVSTQLLLNGSLAEEEIIIRSENLTNNAKIIIVHLNKSVEINCTRPGNNTRKSIRIGPGQTFYATGSIIGDIRKAHCNIRETAWNDTLYKVSKKLAEHFNKTIIFAPSSGGDLEITTHSFNCRGEFFYCNTSGLFKGTYNATSGNSTSNATITLPCRIKQVINMWQGVGKAMYAPPIEGNIICRSNITGLLLTRDGGSNSTDETFRPEGGDMRDNWRSELYKYKVVEIKPLGIAPTGAKRRVVEREKRAVGLGAVFLGFLGAAGSTMGAASITLTAQARQLLSGIVQQQSNLLRAIEAQQHMLQLTVWGIKQLQARVLALERYLQDQQLLGIWGCSGKLICTTAVPWNSSWSNRSREYIWENMTWMQWEREIENYTGTIYQLLEDSQNQQEKNEQDLLALDSWKNLWNWFGISKWLWYIKIFIMIVGGLIGLRILFAIISVVNRVRQGYSPLSFQTLTPNPGGPDRLGGIEEEGGEQDRDRSVRLVNGFLALAWDDLRSLCLFLYHRLRDFISVTVRVVELLGRSSLKGLQGGWEALKYLGNLVQYWISELKKSAISLLDTIAIAVAEGTDRIIDLIQEICRAILNIPRRIRQGFEAALQ
B4: HIV-1 Env, rebound clone, antibody arm (protein)
chain: MRVRETLRNYRLWWIWGILGFWMLMICKGGGDSWVTVYYGVPVWKEAKTTLFCASDAKAYETEMHNVWATHACVPTDPNPQEVPLENVTENFNMWKNDMVEQMHEDVISLWDESLKPCVKLTPLCVTLKCTNATSNGTDTNKTADGYNEIKNCSFNATTIVKDKKQKVYALFYRLDIVPLGNSSEYRLINCNTSAMTQACPKVSFDPIPIHYCAPAGYAIIKCNNKTFNGTGPCNSVSTVQCTHGIKPVVSTQLLLNGSLAEEEIIIRSENLTNNAKIIIVHLNKSVEINCTRPGNNTRKSIRIGPGQTFYATGSIIGDIRKAHCNIRETAWNDTLYKVSKKLAEHFNKTIIFAPSSGGDLEITTHSFNCRGEFFYCNTSGLFKGTYNATSGNSTSNATITLPCRIKQVINMWQGVGKAMYAPPIEGNIICRSNITGLLLTHDGGSNSTDETFRPEGGDMRDNWRSELYKYKVVEIKPLGIAPTGAKRRVVEREKRAVGLGAVFLGFLGAAGSTMGAASITLTAQARQLLSGIVQQQSNLLRAIEAQQHMLQLTVWGIKQLQARVLALERYLQDQQLLGIWGCSGKLICTTAVPWNSSWSNRSREYIWENMTWMQWEREIENYTGTIYQLLEDSQNQQEKNEQDLLALDSWKNLWNWFGISKWLWYIKIFIMIVGGLIGLRILFAIISVVNRVRQGYSPLSFQTLTPNPGGPDRLGGIEEEGGEQDRDRSVRLVNGFLALAWDDLRSLCLFLYHRLRDFISVTVRVVELLGRSSLKGLQGGWEALKYLGNLVQYWISELKKSAISLLDTIAIAVAEGTDRIIDLIQEICRAILNIPRRIRQGFEAALQ

Each binder was assayed against antibody 10-1074 (assay: neutralization IC50; higher = virus less sensitive to the antibody).
Protocol: (§1)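 Pseudovirus bearing the Env chain mixed with antibody, from 50 µg/ml in fivefold dilutions, on TZM-bl reporter cells, in duplicate.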
With B1 the “neutralization IC50” value was 41.8 µg/mL. In the case of B2, the “neutralization IC50” value is reported as over 50 µg/mL. In the case of B3, the “neutralization IC50” value is reported as over 50 µg/mL. In the case of B4, the “neutralization IC50” value is reported as over 50 µg/mL.

Each binder was assayed against antibody 3BNC117 in the same assay as above.
Protocol: as §1
B1 was tested, and the “neutralization IC50” value was 0.02 µg/mL. For B2, the “neutralization IC50” value was 0.058 µg/mL. For B3, the “neutralization IC50” value was 0.063 µg/mL. With B4 the “neutralization IC50” value was over 50 µg/mL.

Each binder was assayed against antibody 10-1074 (assay: neutralization IC80; higher = virus less sensitive to the antibody).
Protocol: as §1
B1 was tested, and the “neutralization IC80” value was over 50 µg/mL. In the case of B2, the “neutralization IC80” value is reported as over 50 µg/mL. For B3, the “neutralization IC80” value was over 50 µg/mL. B4 was tested, and the “neutralization IC80” value was over 50 µg/mL.

These binders were tested against antibody 3BNC117 in the same assay as above.
Protocol: as §1
For B1, the “neutralization IC80” value was 0.095 µg/mL. B2 was tested, and the “neutralization IC80” value was 0.274 µg/mL. In the case of B3, the “neutralization IC80” value is reported as 0.218 µg/mL. With B4 the “neutralization IC80” value was over 50 µg/mL.
